Kd data for one molecule are collected here from article PMC10749193 (Frontiers in Immunology, 2023).

The experiment deals with SARS-CoV-2 spike (D614G)-ectodomain (SARS-CoV-2, Wuhan background with D614G, D614G). Nature of the experiment: SPR.

B1: anti-S2 monoclonal antibody 4A5 (antibody, V domains shown)
VH: QVKLEQSGPGILQPSQTLSLTCSFSGFSLSTSGMGVSWIRQSSGKGLEWLTHIYWDDDKRYNPSLKSRLTISKDTSRNQVFLKITSVDTADTATYYCARRRMITGLYYAMDYWGQGTSVTVSS
VL: DIVMTQSTLSLPVSFGDQVSISCRSSQSLANSYGITYLSWYLHKPGQSPQLLIYGISNRFSGVPDRFSGSGSGTDFTLKISTIKPEDLGMYYCLQGTHQPWTFGGGTKLEIK
As for B1, the Kd came out at 2.11 nM.
